Experimental data taken from US20160281050A1, “METHODS FOR TREATING A CULTURE OF HAEMATOCOCCUS PLUVIALIS FOR CONTAMINATION USING SALT AND HYDROGEN PEROXIDE” (HELIAE DEVELOPMENT LLC, priority 2015, published 2016).

Tested on: Haematococcus pluvialis (Strain 2)
Conditions: for % Carotenoids (UV): 0.0105 mL/L every 6 hours

hydrogen peroxide [H2O2]
Cell Dry Weight (0.0105 mL/L H2O2, MP1, day 5): 0.216 g/L | Cell Dry Weight (0.0105 mL/L H2O2, MP1, day 6): 0.283 g/L | Cell Dry Weight (0.0105 mL/L H2O2, MP1, day 7): 0.321 g/L | Cell Dry Weight (0.0105 mL/L H2O2, MP1, day 8): 0.371 g/L | Cell Dry Weight (0.0105 mL/L H2O2, MP1, day 9): 0.349 g/L | Cell Dry Weight (0.0105 mL/L H2O2, MP1, day 10): 0.370 g/L | Cell Dry Weight (0.0105 mL/L H2O2, MP1, day 11): 0.353 g/L | Cell Dry Weight (0.0105 mL/L H2O2, MP1, day 12): 0.357 g/L | Cell Dry Weight (0.0105 mL/L H2O2, MP1, day 13): 0.364 g/L | Cell Dry Weight (0.0105 mL/L H2O2, MP1, day 14): 0.357 g/L | Cell Dry Weight (0.0105 mL/L H2O2, MP3, day 5): 0.190 g/L | Cell Dry Weight (0.0105 mL/L H2O2, MP3, day 6): 0.201 g/L | Cell Dry Weight (0.0105 mL/L H2O2, MP3, day 7): 0.311 g/L | Cell Dry Weight (0.0105 mL/L H2O2, MP3, day 8): 0.412 g/L | Cell Dry Weight (0.0105 mL/L H2O2, MP3, day 9): 0.353 g/L | Cell Dry Weight (0.0105 mL/L H2O2, MP3, day 10): 0.343 g/L | Cell Dry Weight (0.0105 mL/L H2O2, MP3, day 11): 0.349 g/L | Cell Dry Weight (0.0105 mL/L H2O2, MP3, day 12): 0.375 g/L | Cell Dry Weight (0.0105 mL/L H2O2, MP3, day 13): 0.390 g/L | Cell Dry Weight (0.0105 mL/L H2O2, MP3, day 14): 0.427 g/L | % Carotenoids (UV) (MP1, day 8): 3.71% | % Carotenoids (UV) (MP1, day 9): 4.03% | % Carotenoids (UV) (MP1, day 10): 4.44% | % Carotenoids (UV) (MP1, day 11): 4.33% | % Carotenoids (UV) (MP1, day 12): 3.95% | % Carotenoids (UV) (MP3, day 8): 3.77% | % Carotenoids (UV) (MP3, day 9): 4.19% | % Carotenoids (UV) (MP3, day 10): 4.55% | % Carotenoids (UV) (MP3, day 11): 3.74% | % Carotenoids (UV) (MP3, day 12): 4.47%

Where two headings read alike, the source gives them in different places.
